The source of these data is patent US8937153B2, “Compositions, methods and uses” (Affibody AB, priority 2007, dated 2015).

A short description of data set [1]: Primate pharmacokinetics, serum-Z specific sandwich ELISA (Example 4). The class given is in vivo, Macaca fascicularis. The conditions noted are these: i.v. 0.5 mg/kg. Here is the method:
(§1) Administration and sampling schemes: The animal study was performed at SMI (Smittskyddsinsitutet) in Solna, Sweden, with permission from the local ethical animal committee (N196/06). The primates were sedated before administration of the test molecules and blood sampling, by an intramuscular administration of ketamine (Ketalar®). 10 individual cynomolgus primates, Macaca fascicularis, divided into two groups were intravenously injected with the test molecules according to the scheme in Table 8.
(§2) PK refers to samples taken for the pharmacokinetic study. Blood was stored at 4° C. over night and sera were subsequently kept at −20° C.
(§3) In general, a volume of 50 μl per well was used for all incubation steps except for blocking where a volume of 100 μl was used. Plates were coated over night at 4° C. in coating buffer (15 mM Na2CO3, 35 mM NaHCO3, pH 9.6) and washed with tap water. Blocking and dilutions were done in PBS with 0.5% casein. Incubation times at room temperature were 1-2 hours for blocking and serum, 1 hour for secondary antibody and 10 min for substrate solution (ImmunoPure® TMB, Pierce, cat no 34021). […] The color reaction was stopped by addition of 50 μl 2 M H2SO4 and plates were read at 450 nm using an Ultra384 plate reader (Tecan) equipped with the Magellan software v3.11 (Tecan). […]
For orientation: In an ELISA, binding on a coated surface is turned into a signal by an enzyme label.

Another data set concerns cynomolgus primates. The data set is described as follows: Primate immunogenicity, anti-Z00342 IgG specific ELISA (Example 4). Type of data set: in vivo, Macaca fascicularis. Here is the method: as §1, §2, §3

Take “Z00342: variant of protein Z, derived from the B domain of staphylococcal protein A, with an affinity for the HER2 receptor”: the “time until disappeared from the circulation” value in data set [1] was at most 4 h. Further, in the data set on cynomolgus primates (day 45, calculated by linear regression using positive control as standard), the “median concentration of IgG specific for Z variants” value is given as 2 units/ml. Besides, in the data set with cynomolgus primates (i.v. 0.5 mg/kg/injection, repeated injections, serum days 0-45, 5 primates per group), the “IgG antibody response specific for the injected molecule (ELISA titer)” value is “antibody titer increased steadily and reached a maximum at day 28-35 in three of the animals (9039, 10025, 11019), whereas two showed a low antibody response”.
